From PubChem BioAssay AID488890 (Southern Research Specialized Biocontainment Screening …, 2010) come the findings set out here.

As usually defined, the inhibition is the drop in the measured response relative to a control, in per cent.

The list shows a part of the results. Inconclusive results are not listed. How the calls were made is not given here.

The test can be described thus: growth inhibition of non-replicating M. tuberculosis (AID 488890).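 Further: plate controls were DMSO cells for no effect and high antibiotic wells for full effect.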 The following applies: Mycobacterium tuberculosis non-replicating, at 25 µM, stronger effect = higher value.
As for `Cc1cc(=O)[nH]c(N[N+](=O)[O-])n1`, the inhibition was 2.2%.

`O=C(OC1CN2CCC1CC2)C12CC3CC(CC(C3)C1)C2` (configuration not stated): the inhibition came to 11.5%. As for `Cc1c2c(nc3ccccc13)SC(C(Cl)Cl)C2` (configuration not stated), the inhibition was determined as 68.7%. `COc1cc(I)ccc1[As](=O)(O)O`: the inhibition is -8.25%. The value for `COc1ccc2nc(NP(=O)(c3ccccc3)c3ccccc3)sc2c1` was 13.9%. In the case of `COc1ccc(N/C(=N/P(=O)(N2CCOCC2)N2CCOCC2)N2CCOCC2)cc1`, the inhibition was -5.87%.

Take `COc1cc(C(=O)NCC2(N3CCOCC3)CCCCC2)ccc1OCC(C)C`: the inhibition worked out at 5.08%. Regarding `O=[As](O)(c1ccc(O)cc1)c1ccccc1O`, the inhibition is 55.7%. As to `C[As](=O)(O)c1cccc(C(=O)O)c1`, the inhibition was -14%.

Turning to `Cc1ccc2nc3c(c(C)c2c1)CC(C(Cl)Cl)S3` (configuration not stated), the inhibition worked out at 46.3%. Take `Cc1ccc(OP(=O)(Nc2ccc([N+](=O)[O-])cn2)Oc2ccc(C)cc2)cc1`: the inhibition came to 5.25%. As to `CC(C)c1ccc(OP(=O)(Nc2ccccn2)Oc2ccccc2F)cc1` (configuration not stated), the inhibition stood at 6.18%. Under `ClCCSc1nnc(-c2cccnc2)o1` stands 74.9%; under `CC(C)NC(=O)NP(=O)(Oc1ccccc1)Oc1ccccc1`, 2.5%. As for `CCOC(=O)Nc1ccc([As](=O)(O)O)c(O)c1`, the inhibition was 64.4%. Regarding `CCOC(=O)Nc1cccc([As](=O)(O)O)c1`, the inhibition is -5.51%.

For `O=[N+]([O-])c1ccc(Nc2ccc(Oc3ccc([N+](=O)[O-])cc3[N+](=O)[O-])cc2)c([N+](=O)[O-])c1`, the inhibition turned out to be 10.6%. On to `Cc1cc(SC(NC=O)C(Cl)(Cl)Cl)ncn1` (configuration not stated), for which the inhibition was 30.9%. `O=P(Nc1ccccn1)(c1cccc2ccccc12)c1cccc2ccccc12`: the inhibition worked out at 39.5%. Take `COP1(=S)c2c(C)nn(CCC#N)c2N=C(c2ccc(F)cc2)N1C` (configuration not stated): the inhibition was -4.21%. `O=C(Nc1ccncc1[N+](=O)[O-])c1ccc([N+](=O)[O-])cc1[N+](=O)[O-]`: the inhibition was 75.5%. On to `O=C(COc1ccccc1)OC1CN2CCC1CC2` (configuration not stated), for which the inhibition was -2.73%. With `CCOC(=O)c1ccc(NC(=O)C(C)(CCl)SC)cc1` (configuration not stated), the inhibition turned out to be 8.66%. With `O=C(OC1CN2CCC1CC2)c1cccc([N+](=O)[O-])c1` (configuration not stated), the inhibition was -9.68%.

For `CCC(C)N(CC(C)C)C(=S)SC(NC(C)=O)C(Cl)(Cl)Cl` (configuration not stated), the inhibition turned out to be 63.8%. Regarding `CCOP(=O)(Nc1ccc(C)cn1)OCC`, the inhibition came to 29.9%. The value for `CN(CCCl)Cc1cc(Cl)c(NC2=NCCN2)c(Cl)c1` was 19%; that for `CCOP(=O)(NC(=NC(C)c1ccccc1)NC(C)c1ccccc1)OCC` (configuration not stated) was 7.7%; that for `O=P1(Nc2ccccn2)COc2ccccc2OC1` was 2.29%.

As for `CC(C)(C)C(=O)NC(Sc1ncccn1)C(Cl)(Cl)Cl` (configuration not stated), the inhibition came to 13%.

For `Clc1n[nH]nc1-c1nn[nH][15n]1`, the inhibition turned out to be 0.21%.

On to `COc1ccccc1CNC(=O)COC(=O)C(O)(c1ccccc1)c1ccccc1`, for which the inhibition is -14.4%. On to `CC1(CBr)Cn2c(nc3ccccc3c2=O)S1` (configuration not stated), for which the inhibition was -1.45%. For the compound `O=[As](O)(c1ccccc1Br)c1ccccc1Br`, the inhibition was -14.8%. Consider `CN(C(=O)Cc1ccc(Cl)c(Cl)c1)[C@@H]1CCCC[C@H]1N1CCCC1`, for which the inhibition is 13.3%. Under `CC(C)/C=N\N=C(\N)N[N+](=O)[O-]` stands -12.2%; under `Cc1ccc(C(=O)OC2CN3CCC2CC3)cc1` (configuration not stated), 2.45%; under `CC1CCC(C(C)C)C(OP(=O)(Nc2ccccn2)c2ccccc2)C1` (configuration not stated), 41.9%. On to `Cc1nn(-c2ccccc2)c2c1P(=O)(N1CCOCC1)N(C)C(c1ccccc1)=N2` (configuration not stated), for which the inhibition is -0.13%.

`O=C(/C=C/c1ccccc1)OC1CN2CCC1CC2` (configuration not stated): the inhibition came to 10.1%. Take `CN(C)C1(CNC(=O)c2ccc(S(C)(=O)=O)cc2)CCCCC1`: the inhibition was -6.38%. For `O=P1(Nc2ncccn2)COc2ccccc2OC1`, the inhibition turned out to be 5.49%. On to `Cc1ccc(OCC(=O)OC2CN3CCC2CC3)cc1` (configuration not stated), for which the inhibition was -10%.

As for `O=[As](O)(c1cccs1)c1cccs1`, the inhibition was -4.29%. Turning to `NS(=O)(=O)c1cccc(NC(=O)COC(=O)C(O)(c2ccccc2)c2ccccc2)c1`, the inhibition was -2.53%. For `O=P1(Nc2ccc(Br)cn2)COc2ccccc2OC1`, the inhibition is 0.67%. Under `Nc1cccc([As](=O)(O)c2ccccc2)c1` stands 3.38%; under `CS(=O)(=O)c1cc([N+](=O)[O-])c2no[n+]([O-])c2c1`, -3.79%; under `O=P(Nc1nccs1)(Oc1ccccc1)Oc1ccccc1`, -5.53%. For `CCOP1(=S)c2c(C)nn(CCC#N)c2N=C(c2ccccc2F)N1C` (configuration not stated), the inhibition is -8.07%. For `O=C(O)COc1ccc([As](=O)(O)O)cc1[N+](=O)[O-]`, the inhibition was -5.62%. Under `Nc1ccccc1[As](=O)(O)c1ccccc1` stands 1.52%. Turning to `NC(=O)Nc1ccc([As](=O)(O)O)cc1`, the inhibition is -1.82%. As for `CN(C(=O)Cc1ccc(Cl)c(Cl)c1)[C@H]1CC[C@@]2(CCCO2)C[C@@H]1N1CCCC1`, the inhibition was determined as 3.15%. On to `CN(C(=O)Cc1ccccc1)[C@@H]1CC[C@]2(CCCO2)C[C@H]1N1CCCC1`, for which the inhibition was found to be 1.88%. On to `CCOP1(=S)c2c(C)nn(CCC#N)c2N=C(c2ccc(F)cc2)N1C` (configuration not stated), for which the inhibition is 4.8%. The value for `N#CCCN(C(=O)COC(=O)C(O)(c1ccccc1)c1ccccc1)c1ccc(F)cc1` was -12.8%; that for `CS(=O)(=O)c1ccc(Cl)c(NC(=O)COC(=O)C(O)(c2ccccc2)c2ccccc2)c1` was 3.42%; that for `O=[As](O)(O)c1cccnc1` was -8.65%. With `COc1cc(C(=O)NCC2(N3CCOCC3)CCCCC2)cc(Cl)c1OC(C)C`, the inhibition is 10.9%. Take `O=C(OC1CN2CCC1CC2)c1ccc(Cl)cc1` (configuration not stated): the inhibition was determined as 50%. The value for `Cc1cccc(OCC(=O)OC2CN3CCC2CC3)c1` (configuration not stated) was -7.54%; that for `O=[As](O)(c1cccc(O)c1)c1cccc(O)c1` was 8.13%. The value for `CCCOP(=S)(Nc1nc(N)cc(=O)[nH]1)OCCC` was -0.19%.

Regarding `Nc1cccc2c([As](=O)(O)O)cccc12`, the inhibition was 0.63%. Regarding `CCOP(=O)(Nc1cccc2ccccc12)OCC`, the inhibition was -15.2%. `COc1cc(C2NCCC3(OCCO3)C2(C)C)cc(OC)c1OC` (configuration not stated): the inhibition was 13.8%. In the case of `CCOc1ccc(C2=NCC(CBr)S2)cc1` (configuration not stated), the inhibition came to 9.8%. With `O=P1(Nc2nc3ccc(Cl)cc3s2)COc2ccccc2O1` (configuration not stated), the inhibition is 7.04%. As to `CC(C)(C)C(=O)NC(Sc1ccccc1)C(Cl)(Cl)Cl` (configuration not stated), the inhibition was found to be 20.4%. On to `CC(=O)c1ccc(N2CC2c2ccncc2)cc1` (configuration not stated), for which the inhibition turned out to be 1.28%.

Regarding `C[C@H]1OP(=O)(Oc2ccccc2)C[C@@H]2O[C@@H]21` (some centres not stated), the inhibition is -14.7%.

Take `C[C@@H]1C=CCP(=O)(Oc2ccccc2)O1` (some centres not stated): the inhibition came out at 2.78%.

For the compound `Cc1ccccc1CN(C)C(=O)COC(=O)C(O)(c1ccccc1)c1ccccc1`, the inhibition is -2.31%. For the compound `CC(=O)Nc1ccc(Oc2c([N+](=O)[O-])cc([N+](=O)[O-])cc2[N+](=O)[O-])cc1`, the inhibition was determined as 5.39%.

On to `CC(=O)Nc1ccc([As](=O)(O)O)c(O)c1`, for which the inhibition is -6.42%. `O=C(NC1CCS(=O)(=O)C1)NP(=S)(Oc1ccccc1)Oc1ccccc1` (configuration not stated): the inhibition was determined as 4.42%.
